From patent US6482982B1, “Halogenated antituberculosis agents” (University of Sciences of Philadelphia, priority 2001, dated 2002)

System: M. tuberculosis H37Rv
Test: Minimum bactericidal concentration (MBC) against H37Rv
Type: cell-based, Mycobacterium tuberculosis

| SMILES | H37Rv MBC/MIC |
| --- | --- |
| Nc1cc(O)c(C(=O)O)cc1F [Compound 12, 4-Amino-5-fluorosalicylic Acid] | >64 |
| CC(=O)Nc1ccc(/C=N/NC(N)=S)cc1F [Compound 16, 4-Acetamido-3-fluorobenzaldehyde thiosemicarbazone] | >62.5 |
